From patent publication US20250295657A1, “Methods and Compositions for Treatment of Inflammation and Inflammatory Conditions” (University of Pittsburgh - Of the Commonwealth System of …, priority 2022, published 2025)

System: D614G spike pseudotyped virus
Assay: D614G spike pseudotyped virus infection in iPSCs transfected with the human ACE2 receptor

SMILES: O=C(NCc1cc(=O)oc2cc(O)c(O)cc12)c1nn(-c2ccccc2)c(=O)c2ccccc12 [958ami]
- D614G spike pseudotyped virus infection (5 μM): decreased

SMILES: O=C(OCc1cc(=O)oc2cc(O)c(O)cc12)c1nn(-c2ccccc2)c(=O)c2ccccc12 [compound 958]
- D614G spike pseudotyped virus infection (2 μM): decreased
